## Mutational scan of HIV-1 Vif (LAI) in cells with APOBEC3G

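A pool of vif mutants was passaged twice, 72 h each, on SupT1 cells that express APOBEC3G. Each of three replicates was sequenced after round two and set against the merged round-one pool.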

Scanned stretch, residues 12 to 115 of Vif from HIV-1 LAI (a laboratory-adapted subtype B strain):
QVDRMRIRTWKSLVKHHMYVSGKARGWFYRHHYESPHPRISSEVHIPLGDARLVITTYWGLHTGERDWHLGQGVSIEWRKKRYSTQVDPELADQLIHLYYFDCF

The score is log2 enrichment against the wild-type codon: higher is better tolerated, lower is depleted. A change reads original residue, position, new residue. The median of three replicates is given, with the replicates in brackets. Input reads are the counts in the merged round-one pool, before selection.

change | input reads | log2 enrichment (median)
S53G | 358 | -2.84 (-2.63 / -5.50 / -2.84)
S53I | 243 | -0.72 (-0.72 / -1.78 / 3.95)
S53K | 114 | -4.60 (-4.16 / -4.60 / -4.65)
S53L | 191 | -1.20 (-1.20 / -4.11 / -1.15)
S53N | 359 | -2.11 (-2.11 / -0.31 / -2.60)
S53P | 710 | -0.05 (-0.05 / 4.09 / -0.69)
S53Q | 741 | -1.20 (2.70 / -1.20 / -1.92)
S53R | 644 | -1.79 (-1.79 / -2.56 / -1.47)
S53T | 939 | -1.03 (2.91 / -2.45 / -1.03)
S53W | 475 | -2.06 (0.33 / -2.21 / -2.06)
S53Y | 346 | -2.95 (-2.95 / -4.08 / -2.79)
E54D | 490 | -3.06 (-2.84 / -3.46 / -3.06)
E54G | 463 | -3.84 (-3.41 / -3.84 / -3.88)
E54K | 256 | -3.29 (-2.56 / -3.29 / -3.51)
E54L | 419 | -4.00 (-4.49 / -4.00 / -3.73)
E54N | 374 | -2.45 (-2.45 / -4.02 / -1.25)
E54S | 40 | 1.00 (1.00 / 4.55 / 0.00)
E54T | 401 | -0.69 (-0.03 / -2.47 / -0.69)
E54V | 445 | -1.52 (-2.70 / -1.52 / 0.65)
E54Y | 337 | -2.77 (-1.51 / -3.87 / -2.77)
V55A | 35 | -0.19 (-0.19 / -4.52 / 0.48)
V55C | 1120 | -2.12 (0.88 / -3.24 / -2.12)
V55E | 245 | -2.96 (-2.13 / -3.41 / -2.96)
V55F | 453 | -3.56 (-3.86 / -3.56 / -2.95)
V55G | 275 | -1.22 (-1.22 / 1.63 / -1.29)
V55H | 348 | -2.10 (-2.10 / -4.65 / -0.44)
V55I | 442 | -3.92 (-3.83 / -3.92 / -4.29)
V55K | 291 | -2.38 (-2.38 / -4.10 / -2.31)
V55L | 456 | -3.87 (-3.87 / -3.96 / -2.02)
V55P | 82 | 0.04 (-0.03 / 0.04 / 4.27)
V55Q | 342 | -3.44 (-2.08 / -5.47 / -3.44)
V55S | 848 | -2.34 (-2.70 / 0.41 / -2.34)
V55T | 167 | -1.94 (-1.94 / 1.88 / -2.04)
V55W | 27 | 1.03 (1.03 / 3.67 / 0.56)
H56N | 544 | -1.56 (-1.56 / -2.73 / -0.68)
H56Y | 366 | -0.31 (3.98 / -0.90 / -0.31)
I57C | 30 | -0.43 (-0.70 / 4.89 / -0.43)
I57D | 695 | -1.71 (0.07 / -2.41 / -1.71)
I57E | 191 | -1.49 (-0.85 / -3.05 / -1.49)
I57G | 1698 | -1.01 (-1.01 / -0.32 / -1.25)
I57H | 20 | -1.71 (-1.71 / 2.37 / -2.18)
I57K | 69 | 0.59 (-0.31 / 3.86 / 0.59)
I57N | 921 | -2.71 (-1.85 / -3.94 / -2.71)
I57P | 1545 | -2.74 (-2.17 / -3.74 / -2.74)
I57Q | 86 | -0.79 (4.80 / -1.73 / -0.79)
I57R | 466 | -0.44 (-0.44 / -2.27 / 2.13)
I57T | 323 | -1.93 (-1.79 / -1.93 / -3.35)
I57V | 319 | -4.89 (-5.68 / -4.89 / -3.33)
I57Y | 26 | -2.08 (-2.08 / -2.52 / 2.10)
P58A | 493 | -1.02 (-0.75 / -3.54 / -1.02)
P58C | 21 | 1.02 (1.02 / -0.97 / 5.78)
P58D | 191 | -0.18 (-0.18 / -1.26 / 4.08)
P58E | 383 | -1.85 (-1.85 / -5.12 / -1.26)
P58F | 448 | -1.77 (-1.77 / -3.77 / 0.97)
P58G | 283 | -1.31 (-0.65 / -2.45 / -1.31)
P58I | 37 | 0.67 (-1.00 / 4.95 / 0.67)
P58L | 91 | 1.08 (1.08 / 4.79 / 0.44)
P58N | 379 | -3.12 (-3.12 / -3.67 / -2.91)
P58T | 94 | 0.33 (0.33 / 4.56 / -0.46)
P58W | 271 | -1.02 (-0.92 / -1.02 / -1.24)
P58Y | 395 | -5.17 (-5.99 / -5.17 / -4.84)
L59A | 109 | 0.89 (2.23 / -1.98 / 0.89)
L59D | 440 | -4.56 (-4.56 / -4.62 / -2.52)
L59F | 906 | -0.44 (-1.26 / -0.44 / 0.71)
L59G | 497 | -1.29 (-0.49 / -2.28 / -1.29)
L59I | 400 | 0.40 (0.40 / 0.86 / -0.85)
L59K | 199 | -1.31 (-1.31 / 2.80 / -3.14)
L59N | 830 | -3.13 (-2.67 / -4.91 / -3.13)
L59P | 434 | -1.18 (-1.18 / 2.04 / -2.34)
L59Q | 902 | -1.57 (-1.57 / 0.57 / -2.09)
L59R | 101 | 2.83 (0.61 / 2.83 / 4.49)
L59S | 17 | -1.50 (-1.50 / 0.03 / -1.95)
L59W | 812 | -3.58 (-3.57 / -4.21 / -3.58)
L59Y | 23 | -0.34 (-0.34 / 4.62 / -0.79)
G60C | 33 | -2.90 (-2.42 / -4.40 / -2.90)
G60D | 83 | 3.11 (5.21 / 3.11 / 2.20)
G60E | 375 | -0.78 (-0.78 / 0.94 / -1.43)
G60H | 359 | -0.56 (-0.56 / 3.51 / -1.19)
G60K | 895 | -0.79 (-0.79 / 3.29 / -1.45)
G60L | 458 | -3.86 (-3.03 / -4.09 / -3.86)
G60N | 113 | -4.18 (-4.18 / -3.35 / -4.66)
G60Q | 203 | -2.75 (-5.03 / -2.75 / -2.33)
G60T | 361 | -1.80 (-1.46 / -2.88 / -1.80)
G60V | 1102 | -1.74 (-1.74 / -1.86 / -0.52)
G60W | 1486 | -0.95 (-3.25 / -0.35 / -0.95)
G60Y | 297 | -1.18 (-1.18 / -3.16 / -0.76)
D61A | 266 | -3.84 (-3.84 / -4.26 / -2.18)
D61G | 89 | 0.24 (0.24 / -1.34 / 0.82)
D61H | 416 | -3.83 (-1.98 / -3.83 / -4.20)
D61I | 36 | 0.26 (0.26 / -0.66 / 4.79)
D61P | 276 | -2.67 (-2.67 / -5.17 / -2.47)
D61Q | 440 | -2.98 (-2.98 / -4.46 / -2.36)
D61R | 810 | -1.38 (-1.19 / -3.48 / -1.38)
D61T | 33 | 0.81 (0.74 / 4.93 / 0.81)
D61Y | 469 | -2.45 (-2.33 / -3.61 / -2.45)
A62C | 896 | -3.51 (-3.28 / -3.99 / -3.51)
A62D | 182 | -0.50 (-0.50 / -0.92 / 1.86)
A62G | 307 | -0.89 (-0.89 / -1.82 / 2.59)
A62I | 20 | 1.31 (-0.15 / 5.32 / 1.31)
A62L | 213 | 2.63 (0.99 / 2.63 / 5.63)
A62N | 1525 | 0.52 (0.52 / 0.56 / -1.79)
A62P | 221 | -3.26 (-3.58 / -3.09 / -3.26)
A62Q | 1329 | -3.00 (-3.00 / -3.61 / -2.81)
A62R | 492 | -2.64 (-2.42 / -4.08 / -2.64)
A62S | 732 | -2.10 (-1.85 / -3.78 / -2.10)
A62T | 530 | -0.65 (-0.65 / 1.16 / -1.11)
A62W | 1208 | -2.74 (-2.41 / -3.85 / -2.74)
A62Y | 652 | -2.08 (-2.08 / -2.90 / 3.00)

The last 14 entries again:

{"change": "D61Y", "input reads": "469", "log2 enrichment (median)": "-2.45 (-2.33 / -3.61 / -2.45)"}
{"change": "A62C", "input reads": "896", "log2 enrichment (median)": "-3.51 (-3.28 / -3.99 / -3.51)"}
{"change": "A62D", "input reads": "182", "log2 enrichment (median)": "-0.50 (-0.50 / -0.92 / 1.86)"}
{"change": "A62G", "input reads": "307", "log2 enrichment (median)": "-0.89 (-0.89 / -1.82 / 2.59)"}
{"change": "A62I", "input reads": "20", "log2 enrichment (median)": "1.31 (-0.15 / 5.32 / 1.31)"}
{"change": "A62L", "input reads": "213", "log2 enrichment (median)": "2.63 (0.99 / 2.63 / 5.63)"}
{"change": "A62N", "input reads": "1525", "log2 enrichment (median)": "0.52 (0.52 / 0.56 / -1.79)"}
{"change": "A62P", "input reads": "221", "log2 enrichment (median)": "-3.26 (-3.58 / -3.09 / -3.26)"}
{"change": "A62Q", "input reads": "1329", "log2 enrichment (median)": "-3.00 (-3.00 / -3.61 / -2.81)"}
{"change": "A62R", "input reads": "492", "log2 enrichment (median)": "-2.64 (-2.42 / -4.08 / -2.64)"}
{"change": "A62S", "input reads": "732", "log2 enrichment (median)": "-2.10 (-1.85 / -3.78 / -2.10)"}
{"change": "A62T", "input reads": "530", "log2 enrichment (median)": "-0.65 (-0.65 / 1.16 / -1.11)"}
{"change": "A62W", "input reads": "1208", "log2 enrichment (median)": "-2.74 (-2.41 / -3.85 / -2.74)"}
{"change": "A62Y", "input reads": "652", "log2 enrichment (median)": "-2.08 (-2.08 / -2.90 / 3.00)"}

The scan is noisy: the rank correlation of replicates is about 0.4 to 0.65, and variants with under about 50 input reads tend to read too high. Not every substitution is listed. Positive scores are uncertain; some enriched variants did not exclude APOBEC3G in a separate test.

Source: Langley et al. 2025, preprint (doi:10.1101/2025.10.20.683452), supplementary data.